The assay addresses SNAP-25 (endogenous, human cell lines) (human) (UniProt P60880). Kind of assay: cell-based or functional assay.

The record followed here is US20120207733A1 (priority 2011, published 2012).

On to BoNT/A (enzyme), for which the Lowest Concentration and Earliest Time for Cleavage Detection, LNCaP cells was 50 nM; the Lowest Concentration and Earliest Time for Cleavage Detection, MCF-7 cells came to 1.1 nM.
